# Assay results taken from the supplement of paper PMC12297408.
# The entries are a selection whose mix differs from that of the whole data set.
# Test system: Plasmodium falciparum NF54/iGP1_RE9H ulg8 stage V gametocytes
# Experiment: gametocyte viability (luciferase signal relative to DMSO control) (% of DMSO control); higher = less gametocytocidal activity, active = 50 or less
# Settings: exposure time: 72 h
# In short: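 Stage V gametocytes of the NF54/iGP1_RE9Hulg8 line (day 12; ~2.5% gametocytemia, 3% hematocrit), in medium containing 0.5% Albumax II, were dispensed into 96-well plates with compounds spotted in nanolitre volumes from 10 mM DMSO stocks, for final concentrations of 10 µM or 1 µM in a single well each. After 72 h at 37 °C, 90 µl from each well was combined with 10 µl D-luciferin (30 mg/ml), and luminescence was measured on an IVIS Lumina II. Viability was expressed against the mean of the DMSO vehicle wells on the same plate.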
structure (smiles),measurement,setting,value
COc1ccc(C=C(C#N)C#N)cc1,gametocyte viability,concentration: 1 µM,inactive: 101
same,gametocyte viability,concentration: 10 µM,inactive: 107
